Reference: publication PMC3470408

Test system: C=C(C)CCO[P@@](=O)(O)OP(=O)(O)O
Test: purified protein
Details: pH 7.0; 37.0 °C

“Rv3383c (Mycobacterium tuberculosis H37Rv)” gave a Km of 11 ± 2 µM.

“Rv0562 (Mycobacterium tuberculosis H37Rv)” showed a Km of 1.7 ± 0.7 µM.
